One test concerns the target Ebola (UniProt P87666). Kind of test: ELISA. On the technique in general: An ELISA detects its analyte on a solid surface through an enzyme-linked reagent.
The next test concerns the target EBOV/Mak GP (UniProt P87666). Briefly: SPR. (In SPR one partner is held on a chip, and binding of the other changes the refractive index at the surface.)

As usually defined, the EC50 is the concentration at which the effect is half-maximal. High values mean weaker potency, low ones greater potency. For orientation: Kd means the concentration at which binding is half-saturated. The low end stands for higher affinity, the high end for lower affinity.

KZ52: the half-maximal effective concentration (EC50) with Ebola stood at 0.34 µg/mL. This substance also displayed a Kd in the test with EBOV/Mak GP of 2.36 nM.

For the origin of these results see patent publication US20220387579A1.
